The values below come from paper PMC2757719.

For some assays here: For at least one entry, the source does not settle the construct or the ends of the probe. For some assays here: At least one verdict was read from the data and is not stated in words by the source.

Data set [1] concerns EBNA1 395-641 + USP7-NTD (TRAF domain). Kind of data set: EMSA. The following applies: excess USP7-NTD (10 pmol), slower migration; 20 mM Tris pH 7.5, 200 mM NaCl, 1 ug salmon sperm DNA, 10 fmol probe, 20 ul, room temperature 10 min; 10% polyacrylamide gel; recombinant protein; protein details: N-terminal His6; label: 32P 5' end label.
Data set [2] concerns the target EBNA1 452-641 (Epstein-Barr virus) (UniProt P03211). In words: EMSA. The following applies: no USP7; 20 mM Tris pH 7.5, 200 mM NaCl, 1 ug salmon sperm DNA, 10 fmol probe, 20 ul, room temperature 10 min; 10% polyacrylamide gel; recombinant protein; residues 452-641; label: 32P 5' end label. Background: In EMSA bound probe runs differently from free probe, usually more slowly.

With “CGGGAAGCATATGCTACCCG (double strand) [DS site 1 20-mer]”, the binding result in data set [1] and in data set [2] was “binds” in each case.
